We go through 1 substance from patent US20250163122A1, “COMPOSITIONS AND METHODS FOR TREATING AIRWAY MUCUS DYSFUNCTION” (BOARD OF REGENTS, THE UNIVERSITY OF TEXAS SYSTEM, priority 2022, published 2025).

In data set [1] the test system is mouse airway epithelium. Kind of data set: Peptide uptake in mouse airway epithelium after aerosol delivery. It is filed as in vivo. Particulars: 30 min after aerosolized 20 μM, left axial bronchus.
The subject of data set [2] is CALU-3 cells. Kind of data set: Uptake of PEN-SP9-Cy3 in CALU-3 cells with endocytosis inhibitors. It is filed as cell-based.

In the case of “H2N-RQIKIWFQNRRMKWKKEE(S5)KDA(S5)IR(S5)LVM(S5)DEQ-(C/Cy3Mal)-amide (IRQIKIWFQNRRMKWKKEEAKDAAIRALVMADEQ; S5 staples, penetratin, Cys-Cy3 maleimide, C-terminal amide; MOD_RES 20 S-pentenylalanine; MOD_RES 24 S-pentenylalanine; MOD_RES 27 S-pentenylalanine; MOD_RES 31 S-pentenylalanine; CROSSLNK 20..24 Macrocyclic crosslink is formed by substituting the non-natural amino acids S-pentenylalanine; CROSSLNK 27..31 Macrocyclic crosslink is formed by substituting the non-natural amino acids S-pentenylalanine) [PEN-SP9-Cy3]”, the “uptake by secretory cells (CCSP staining)” value in data set [1] is reported as “not take up”. For the same substance, the “cytoplasmic delivery (Cy3 mean fluorescence intensity) with dynasore” value in data set [2] (100 μM PEN-SP9-Cy3, 80 μM dynasore) is recorded as “inhibited”. In data set [2] (100 μM PEN-SP9-Cy3, 100 μM chloroquine), the “cytoplasmic delivery (Cy3 mean fluorescence intensity) with chloroquine” value was “inhibited”.
